Compound potency records, mixed from different reports. Data source: NIAID ChemDB in PubChem.

All rows: growth or infection tests; organism: HIV-1; endpoint: EC50

ECn: concentration that inhibits the pathogen or its effect by n%.

SMILES,strain,cells,method,mutations,value
C=C(C)[C@@H]1CC[C@]2(C(=O)NCCCCCCCC(=O)N[C@@H](CC(C)C)[C@@H](O)CC(=O)O)CC[C@]3(C)[C@H](CC[C@@H]4[C@@]5(C)CC[C@H](O)C(C)(C)[C@@H]5CC[C@]43C)[C@@H]12,LAI,HeLa P4 + HeLa,syncytia,GP41-K90R,<10 µM
CCOCn1c(Cc2ccccc2)c(C(C)C)c(=O)[nH]c1=O,IIIB,MT-4,MTT,,0.03 µM
COc1ccc2c(c1)C(O)=C(C1=C(Cl)C(=O)c3ccccc3C1=O)C(=O)C2=O,IIIB,CEM,cytopathic effect / MTT,,2.7 µM
CNC(=O)c1ccc(-c2ncc(OC)c3c(C(=O)C(=O)N4CCC(=C(C#N)c5ccccc5)CC4)c[nH]c23)cc1,,HeLa,luciferase,,<1 µM
Cc1c(F)cccc1C(=O)N[C@@H](Cc1ccccc1)[C@H](O)CN1C[C@H]2CCCC[C@H]2C[C@H]1C(=O)NC(C)(C)C,RF,MT-2,cytopathic effect / MTT,,1.65 µg/mL
Cc1cn([C@H]2C[C@H](N=[N+]=[N-])[C@@H](CO)O2)c(=O)[nH]c1=O,BRU,CEM-SS,p24 / ELISA / antigen,,0.037 µM
Cc1c(O)cccc1C(=O)N[C@@H](CSc1ccc2ccccc2c1)[C@H](O)CN1C[C@H]2CCCC[C@H]2C[C@H]1C(=O)NC(C)(C)C,RF,MT-2,cytopathic effect / MTT,,0.0439 µg/mL
COCC#CC(=C1CCN(C(=O)C(=O)c2c[nH]c3c(OC)ncc(OC)c23)CC1)c1ccccc1,,HeLa,luciferase,,<1 µM
COc1cccc2c1C(=O)C(C1=C(Cl)C(=O)c3ccccc3C1=O)=C(Cl)C2=O,IIIB,CEM,cytopathic effect / MTT,,6.6 µM
O=C(Nc1ncnc2c1ncn2[C@@H]1O[C@H](CO)[C@@H](OC(=O)c2ccccc2)[C@H]1OC(=O)c1ccccc1)c1ccccc1,NL4-3,HeLaP4,β-galactosidase,,1–2 µM
COC1=C(C2=C(Cl)C(=O)c3ccccc3C2=O)C(=O)c2ccc(OC)cc2C1=O,IIIB,CEM,cytopathic effect / MTT,,1.2 µM
COc1ncc(OC)c2c(C(=O)C(=O)N3CCC(=C(C#CC4CC4)c4ccccc4)CC3)c[nH]c12,,HeLa,luciferase,,<1 µM
CCCC(C(=O)O)c1c(C)nc2ccc(Br)cc2c1-c1ccc(C)cc1,,C8166,luciferase / reporter gene,,<20 µM
COc1ccc2oc3ccc(O)cc3c(=O)c2c1O,,,,,0.79 µg/mL
C=C(C)[C@]12C[C@@H](C)[C@]34OC5(CCCCCCC[C@@H](C)[C@@H]([C@H](C)C(=O)O)[C@@H]3C(=O)[C@H](O)[C@@]3(CO)O[C@H]3[C@H]4[C@H]1O5)O2,NL4-3,MT-4,luciferase,,9.34 µM
Cc1ccc(C)n1-c1ccc(C(=O)O)c(O)c1,93BR020 X4R5 CLADE F,PBMC + MT-2,p24,,10.6 µM
CCCCCCCCCCCCCCCCCC1N[C@@H](CO)[C@H](O)[C@H](O)[C@@H]1O,89.6,TZM-bl,luciferase,,3.69 µM
Cc1cn([C@H]2C[C@H](N=[N+]=[N-])[C@@H](CO)O2)c(=O)[nH]c1=O,BaL,PBMC,p24 / ELISA,,0.077 µM
C=C(C)[C@@H]1CC[C@]2(CO)CC[C@]3(C)[C@H](CC[C@@H]4[C@@]5(C)CC[C@H](OC(=O)CCC(=O)O)C(C)(C)[C@@H]5CC[C@]43C)[C@@H]12,IIIB,H9,p24,,>100 µg/mL
COC(=O)[C@H](C)NP(=O)(OC[C@@H]1C=C[C@H](n2cc(C)c(=O)[nH]c2=O)O1)Oc1ccccc1Br,IIIB WT,PBMC,p24,,0.002 µM
CSc1ccc(-c2c(C(OC(C)C)C(=O)O)c(C)nc3ccc(Cl)cc23)cc1,,C8166,luciferase / reporter gene,,<20 µM
O=C1C(=O)c2ccccc2C(O)=C1C1=C(Br)C(=O)c2ccccc2C1=O,IIIB,CEM,cytopathic effect / MTT,,2.3 µM
Nc1ncnc2c1ncn2[C@@H]1C[C@@H](O)[C@@H](O)[C@H]1O,IIIB,MT-4,,,>0.8 µM
Cc1cn([C@@H]2C[C@@H](N=[N+]=[N-])[C@H](COP(=O)(COc3ccccc3)OC[C@H]3O[C@@H](n4cc(C)c(=O)[nH]c4=O)C[C@@H]3N=[N+]=[N-])O2)c(=O)[nH]c1=O,BRU,CEM-SS,p24 / ELISA / antigen,,0.25 µM
CC(=O)c1ccc(-c2c(C(OC(C)C)C(=O)O)c(C)nc3ccc(Cl)cc23)cc1,,C8166,luciferase / reporter gene,,<20 µM
C=CCOCn1c(Cc2cccc(C(F)(F)F)c2)c(CC)c(=O)[nH]c1=O,EFV-resistant (K103R V179D P225H),MT-4,MTT,,>77 µM
CC(C)(C)NC(=O)[C@@H]1C[C@@H]2CCCC[C@@H]2CN1C[C@H](O)[C@H](Cc1ccccc1)NC(=O)c1c(Cl)ccc(O)c1Cl,RF,MT-2,cytopathic effect / MTT,,7.19 µg/mL
COC(=O)[C@H](C)NP(=O)(OC[C@@H]1C=C[C@H](n2cc(C)c(=O)[nH]c2=O)O1)Oc1c(OC)cccc1OC,A17,PBMC,p24,RT-Y181C,0.137 µM
COC1=C(C2=C(Cl)C(=O)c3ccccc3C2=O)C(=O)c2cc(OC)ccc2C1=O,IIIB,CEM,cytopathic effect / MTT,,1.6 µM
C=C(C)[C@]12C[C@@H](C)[C@]34OC5(CCCCCCC[C@H](C)[C@@H]([C@H](C)C(=O)OC)[C@@H]3C(=O)[C@H](O)[C@@]3(CO)O[C@H]3[C@H]4[C@H]1O5)O2,NL4-3,MT-4,luciferase,,1.08 µM
Cc1ccc(-c2c([C@H](OC(C)(C)C)C(=O)O)c(C)nc3ccccc23)cc1C,,MT-2,,,0.036 µM
C=CCOCn1c(Cc2c(F)c(F)cc(F)c2F)c(CC)c(=O)[nH]c1=O,A17,MT-4,MTT,K103N + Y181C,44 µM
COc1cnc(Cl)c2[nH]cc(C(=O)C(=O)N3CCC(=C(C#N)c4ccccc4)CC3)c12,,HeLa,luciferase,,<1 µM
C=CCC(C(=O)O)c1c(-c2ccc(Cl)cc2)c2cc(Br)ccc2oc1=O,,C8166,luciferase / reporter gene,,<20 µM
CC(C)(C)NC(=O)[C@@H]1C[C@@H]2CCCC[C@@H]2CN1C[C@H](O)[C@H](Cc1ccccc1)NC(=O)c1cccc(Cl)c1Cl,RF,MT-2,cytopathic effect / MTT,,1.45 µg/mL
COCP(=O)(OC[C@@H]1O[C@H](n2cc(C)c(=O)[nH]c2=O)C[C@H]1N=[N+]=[N-])OC[C@H]1O[C@@H](n2cc(C)c(=O)[nH]c2=O)C[C@@H]1N=[N+]=[N-],BRU,CEM-SS,p24 / ELISA / antigen,,0.68 µM
COc1cccc2c1C(=O)C(C1=C(N)C(=O)c3ccccc3C1=O)=C(Cl)C2=O,IIIB,CEM,cytopathic effect / MTT,,2.4 µM
Cc1cn([C@H]2C[C@H](N=[N+]=[N-])[C@@H](COP(=O)(COc3ccccc3)OC[C@@H]3O[C@H](n4ccc(N)nc4=O)CS3)O2)c(=O)[nH]c1=O,BRU,CEM-SS,p24 / ELISA / antigen,,0.24 µM
COC(=O)[C@H](C)NP(=O)(OC[C@@H]1C=C[C@H](n2cc(C)c(=O)[nH]c2=O)O1)Oc1ccc(OC)cc1,IIIB WT,PBMC,p24,,0.004 µM
CCc1ccc(-c2c([C@H](OC(C)C)C(=O)O)c(C)nc3ccc(Cl)cc23)cc1,,C8166,luciferase / reporter gene,,<20 µM
COc1cnc(-c2cnccn2)c2[nH]cc(C(=O)C(=O)N3CCC(=C(C(N)=O)c4ccccc4)CC3)c12,,HeLa,luciferase,,<1 µM
COC1=C(C2=C(Cl)C(=O)c3ccccc3C2=O)C(=O)c2ccc3c(c2C1=O)C=C[C@@](C)(CCC=C(C)C)O3,IIIB,CEM,cytopathic effect / MTT,,2.3 µM
Cc1c(O)cccc1C(=O)N[C@@H](CSc1ccccc1)[C@H](O)CN1C[C@H]2SCC[C@H]2C[C@H]1C(=O)NC(C)(C)C,SN 123,CEM,cytopathic effect / XTT,,0.004 µM
CC/C=C(\C(=O)O)c1c(C)nc2ccc(Br)cc2c1-c1ccc(Cl)cc1,,C8166,luciferase / reporter gene,,<20 µM
CC(C)(C)NC(=O)[C@@H]1C[C@@H]2CCCC[C@@H]2CN1C[C@@H](O)[C@H](Cc1ccccc1)NC(=O)c1cccnc1Cl,IIIB,CEM,cytopathic effect / MTT,,1.48 µg/mL
COc1cnc(-n2ccc(C)n2)c2[nH]cc(C(=O)C(=O)N3CCC(=C(c4ccccc4)c4nnc(C)o4)CC3)c12,,HeLa,luciferase,,<1 µM

The first 5 rows once more:

SMILES	strain	cells	method	mutations	value
C=C(C)[C@@H]1CC[C@]2(C(=O)NCCCCCCCC(=O)N[C@@H](CC(C)C)[C@@H](O)CC(=O)O)CC[C@]3(C)[C@H](CC[C@@H]4[C@@]5(C)CC[C@H](O)C(C)(C)[C@@H]5CC[C@]43C)[C@@H]12	LAI	HeLa P4 + HeLa	syncytia	GP41-K90R	<10 µM
CCOCn1c(Cc2ccccc2)c(C(C)C)c(=O)[nH]c1=O	IIIB	MT-4	MTT		0.03 µM
COc1ccc2c(c1)C(O)=C(C1=C(Cl)C(=O)c3ccccc3C1=O)C(=O)C2=O	IIIB	CEM	cytopathic effect / MTT		2.7 µM
CNC(=O)c1ccc(-c2ncc(OC)c3c(C(=O)C(=O)N4CCC(=C(C#N)c5ccccc5)CC4)c[nH]c23)cc1		HeLa	luciferase		<1 µM
Cc1c(F)cccc1C(=O)N[C@@H](Cc1ccccc1)[C@H](O)CN1C[C@H]2CCCC[C@H]2C[C@H]1C(=O)NC(C)(C)C	RF	MT-2	cytopathic effect / MTT		1.65 µg/mL

Blank or dashed fields: not listed here. Conditions beyond the fields shown may differ between rows. a–b is a range or a potency band.